Laboratory results: PubChem BioAssay AID504761 (Drosophila RNAi Screening Center, 2011)

Aim: 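Insect host genes that dengue virus relies on to spread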 (primary screen)
System: D.Mel-2 cells from Drosophila
Reagents: long dsRNA against Drosophila genes
Treatment: infection with dengue virus type 2; dose and infection time not stated
Read-out: 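Per well on two replicate plates, imaging gave the percent of cells positive for viral envelope protein, ranked by infection, and a nuclear count of cells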
Direction: infection score: higher = more virus-infected cells; cell count: higher = more cells in the well
Active means: 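Low infection ranks in the two replicates (chance level up to 0.065) followed by a retest with a 1.5-fold or larger significant decrease, p below 0.05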
Meaning of the calls: active = confirmed: knock-down lowers infection; inactive = not picked or not confirmed
In all, the deposit lists about 22,000 reagents; below is a random part of those that have a named target and a result. In the full data, 116 (0.52%) were called active. 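Calls depend on retest data that are not deposited; infection was ranked per plate without normalising between plates; the unit of the infection score is not given.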 Raw values vary from plate to plate and are shown uncorrected. Unmarked entries are inactive. Reagents against one gene are numbered here. A plus sign joins genes that one reagent is predicted to hit. The record does not give: the amount of reagent, the time to read-out.

no.	gene	dsRNA no.	infection score, replicate 1	infection score, replicate 2	cell count, replicate 1	cell count, replicate 2
1	vis + achi	1	3.38	9.24	6099	6006
2	CG13615	1	13	2.67	5145	6885
3	CG13615	2	16.2	15.8	4828	5710
4	CG4960	1	4.98	1.57	5787	6763
5	CG4960	2	8.8	41.5	6533	4043
6	SNRPG (Small nuclear ribonucleoprotein G)	1	2.99	3.94	4911	5227
7	bru3 (bruno 3)	1	8.82	2.57	6267	7012
8	bru3 (bruno 3)	2	7.63	10.8	5977	6528
9	bru3 (bruno 3)	3	0.52	0.72	6578	6845
10	bru3 (bruno 3)	4	3.72	7.19	7392	6578
11	bru3 (bruno 3)	5	26.8	19.4	5467	6901
12	fidipidine	1	10.8	15.3	2347	3103
13	fidipidine	2	1.52	2.82	6135	6240
14	CG42374 + Mettl5	1	4.06	4.81	6422	6587
15	Spred (Sprouty-related protein with EVH-1 domain)	1	7.79	10.8	6355	6168
16	Spred (Sprouty-related protein with EVH-1 domain)	2	38.8	6.79	5207	2004
17	Tektin-A (Tektin A)	1	8.91	8.53	6339	6285
18	CG7164	1	3.91	5.21	6552	6700
19	CG7164	2	13.7	4.39	3650	934
20	CG11298	1	8.98	16.1	6860	4604
21	piwi (P-element induced wimpy testis)	1	14.2	8.63	6017	6282
22	CG43345	1	11.4	24.5	6030	5681
23	CG17570	1	1.39	0.7	6190	6281
24	CG17570	2	6.86	6.6	6327	6376
25	Sans (Scaffold protein containing ankyrin repeats and SAM domain)	1	17.1	12.9	5585	6509
26	Sans (Scaffold protein containing ankyrin repeats and SAM domain)	2	35.7	19	4853	5906
27	CG5968	1	2.09	1.16	6072	6281

Sorted by “infection score, replicate 1” (low to high): some entries from above.
gene	dsRNA no.	infection score, replicate 1	infection score, replicate 2	cell count, replicate 1	cell count, replicate 2
CG7164	1	3.91	5.21	6552	6700
CG42374 + Mettl5	1	4.06	4.81	6422	6587
Spred (Sprouty-related protein with EVH-1 domain)	1	7.79	10.8	6355	6168
Tektin-A (Tektin A)	1	8.91	8.53	6339	6285
CG11298	1	8.98	16.1	6860	4604
CG43345	1	11.4	24.5	6030	5681
CG7164	2	13.7	4.39	3650	934
piwi (P-element induced wimpy testis)	1	14.2	8.63	6017	6282
Spred (Sprouty-related protein with EVH-1 domain)	2	38.8	6.79	5207	2004

Continued.
no.	gene	dsRNA no.	infection score, replicate 1	infection score, replicate 2	cell count, replicate 1	cell count, replicate 2
28	Ube3a (Ubiquitin protein ligase E3A)	1	3.78	2.37	6675	7033
29	CG6937	1			334	374
30	CG6937	2	11.9	4.33	6282	6231
31	140up (upstream of RpII140)	1	10.4	6.16	6392	6586
32	140up (upstream of RpII140)	2	4.9	1.7	2388	471
33	CG17059	1	14.4	3.94	5691	6973
34	snama (something that sticks like glue)	1	23.4	14.2	5573	6472
35	snama (something that sticks like glue)	2	18.4	35.8	2704	5108
36	CG43996	1	0.6	3.41	6459	6836
37	CG43996	2	4.07	4.57	6394	6481
38	CG45002	1	7.6	7.91	6212	6218
39	CG3386	1	1.88	8.05	6393	5740
40	CG3386	2	13.2	18	5540	5604
41	CG13564	1	25.9	12.2	5471	5283
42	Cap-D2 (CAP-D2 condensin subunit)	1	6.04	8.71	5914	6237
43	Cap-D2 (CAP-D2 condensin subunit)	2	1.68	6.76	4576	4246
44	mat (materazzi)	1	2.95	2.54	6227	5949
45	mat (materazzi)	2	0.5	18.8	5192	4826
46	mat (materazzi)	3	6.38	2.69	6189	6271
47	Smyd4-3 (SET and MYND domain containing, class 4, member 3)	1	20.2	18.1	5550	6476
48	Smyd4-3 (SET and MYND domain containing, class 4, member 3)	2	16.7	3.87	4521	1034
49	CG2201	1	7.13	15.7	6139	1201
50	CG2604	1	8.36	6.8	6795	6951
51	CG2604	2	11.4	23.2	6542	6387
52	VhaPPA1-1 (Vacuolar H[+] ATPase PPA1 subunit 1)	1	1.18 (active)	1.86	6025	6080
53	VhaPPA1-1 (Vacuolar H[+] ATPase PPA1 subunit 1)	2	0.2	0.39	5579	5578
54	CenB1A (Centaurin beta 1A)	1	1.64	23.2	6417	5641
55	CenB1A (Centaurin beta 1A)	2	14.8	21.9	3979	1896
56	CG31789	1	1.94	1.08	5971	6043
57	CG31789	2	1.44	3.31	6388	6346
58	Ir40a (Ionotropic receptor 40a)	1	4.13	10.6	6557	6958
59	Ir40a (Ionotropic receptor 40a)	2	1.96	6.09	6993	6557
